Anti-infective test results gathered from many reports (values: NIAID ChemDB through PubChem).

Common to all: tests in culture; agent: HIV-1; endpoint: fold resistance

Lines come from different laboratories, so protocols vary. Blank or dashed fields: not listed here. Fold resistance: result on the changed form divided by that on wild type.

smiles	read by	cells	strain	mutations	result
CCC(CC)OC(=O)c1cc(NC(=S)OC(C)C)ccc1Cl	syncytia	CEM	-	RT-V106A	100
CCCCCOC(=O)c1cc(NC(=O)C2=C(C)OCCS2)ccc1Cl	syncytia	CEM	TSAO-resistant (RT E138K)	RT-E138K	15
CCc1c(Sc2cc(C)cc(C)c2)n(COCc2ccccc2)c(=S)[nH]c1=O	syncytia	CEM	IIIB	RT-Y181C	53.3
COc1ccc(NC(=S)OC(C)C)cc1CC(=O)OC(C)C	syncytia	CEM	-	RT-V106A	29.56
Cc1occc1C(=S)Nc1ccc(Cl)c(C(=O)OC(C)C)c1	cytopathic effect / XTT	CEM + CEM-SS	CALO(RT-T139I)	RT-T139I	2
Cc1sccc1C(=S)Nc1ccc(Cl)c(OCC=C(Cl)Cl)c1	syncytia	CEM	TSAO-m3T-resistant (RT E138K)	RT-E138K	10.7
CCCOC(=O)c1ccc(C)c(NC(=O)C2=C(C)OCCS2)c1	syncytia	CEM	TSAO-resistant (RT E138K)	RT-E138K	>10
CC1=C(C(=O)Nc2ccc(Cl)c(OCC=C(Cl)Cl)c2)SCCO1	syncytia	CEM	HEPT-resistant (RT Y188H)	RT-Y188H	1.67
COC(=O)c1cc(NC(=O)C2=C(C)OCCS2)ccc1Cl	syncytia	CEM	TIBO-resistant (RT L100I)	RT-L100I	>2.5
CSc1ccc(NC(=S)OC(C)C)cc1C(=O)OC(C)C	syncytia	CEM	-	RT-E138K	18.3
CC(C)=CCOc1cc(NC(=S)c2ccoc2C)ccc1Cl	p24	CEM + CEM-SS	NL4-3	RT-L74V	1
CCOCn1c(Cc2ccccc2)c(CC)c(=O)[nH]c1=O	syncytia	CEM	IIIB	Nevirapine resistant (RT Y181C)	32.5
Cc1cc(S(N)(=O)=O)ccc1NC(=O)COc1ccc(Cl)cc1C(=O)c1cccc(C#N)c1	β-galactosidase	HeLa + HELA CD4+	HXB2	RT-L100I	~1
COc1ccc(NC(=S)C2=C(C)OCCS2)cc1OCC=C(Cl)Cl	syncytia	CEM	TIBO R82150-resistant (RT L100I)	RT-L100I	6.67
CCCCCOC(=S)Nc1ccc(Cl)c(C(=O)OC(C)C)c1	syncytia	CEM	-	RT-L100I	10
CC1=C(C(=O)Nc2ccc(Cl)c(C(=O)OC3CCCCC3C)c2)SCCO1	syncytia	CEM	Nevirapine-resistant (RT V106A)	RT-V106A	6
O=C1Nc2ccc(Cl)cc2[C@@](C#CC2CC2)(C(F)(F)F)N1	-	-	-	RT-Y188C	<6.32
CCOC(=O)c1cc(NC(=S)OC(C)C)ccc1SC	syncytia	CEM	-	RT-V106A	83.5
Cc1cc(C)cc(Sc2c(C(C)C)c(=O)[nH]c(=S)n2COCCO)c1	syncytia	CEM	IIIB	RT-E138K	8.33
C=C(C)COc1cc(NC(=S)OC(C)C)ccc1Cl	syncytia	CEM	-	RT-Y181C	>11.1
Cc1cc(S(N)(=O)=O)ccc1NC(=O)COc1ccc(Cl)cc1C(=O)c1cc(F)cc(C#N)c1	β-galactosidase	HeLa + HELA CD4+	HXB2	RT-L100I	~1
COc1ccc(NC(=S)c2ccsc2C)cc1OCC=C(Cl)Cl	syncytia	CEM	TSAO-m3T-resistant (RT E138K)	RT-E138K	26
CC(C)OC(=S)Nc1ccc(Cl)c(C(=O)OC2CC2)c1	syncytia	CEM	-	RT-V106A	50.2
COc1ccc(NC(=O)c2ccoc2C)cc1OCC=C(Cl)Cl	syncytia	CEM	TIBO R82150-resistant (RT L100I)	RT-L100I	20
CC(C)OC(=S)Nc1ccc(Cl)c(C(=O)OC2(C)COC2)c1	syncytia	CEM	-	RT-V106A	17
CC=CCOc1cc(NC(=S)c2ccoc2C)ccc1OC	cytopathic effect / XTT	CEM + CEM-SS	4xAZT(RT-D67N K70R T215Y K219Q)	RT-D67N K70R T215Y K219Q	1
Cc1cc(C#N)cc(C(=O)c2cc(Cl)ccc2OCC(=O)Nc2cnc(S(N)(=O)=O)cc2C)c1	β-galactosidase	HeLa + HELA CD4+	HXB2	RT-V106I	~1
C[C@@H]1CCO[C@H]2Cn3cc(C(=O)NCc4ccc(F)cc4F)c(=O)c(O)c3C(=O)N12	RT activity	CBMC	NL4-3	N155H	1.4
C=CCSc1cc(NC(=S)OC(C)C)ccc1Cl	syncytia	CEM	-	RT-V106A	12.5
Cc1cc(C#N)cc(C(=O)c2cc(Cl)ccc2OCC(=O)Nc2ccc(S(N)(=O)=O)cc2C)c1	β-galactosidase	HeLa + HELA CD4+	HXB2 (RT-K103N Y181C) Recombinant	RT-K103N Y181C	~1
C#CCOC(=O)c1cc(NC(=S)OC(C)C)ccc1Cl	syncytia	CEM	-	RT-L100I	20.7
CC1=C(C(=O)Nc2ccc(Cl)c(C(=O)OC(C)C)c2)SCCO1	syncytia	CEM	IIIB	RT-Y188L	357.1
CC(C)O/N=C/c1cc(NC(=S)OC(C)C)ccc1Cl	syncytia	CEM	-	RT-Y181C	35
CC1=C(C(=O)Nc2cc(C(=O)OC(C)C)c(Cl)cc2F)SCCO1	syncytia	CEM	TSAO-resistant (RT E138K)	RT-E138K	>15.4
CC(C)c1c(Sc2ccccc2)n(COCCO)c(=S)[nH]c1=O	syncytia	CEM	IIIB (TIBO 82150) (RT-L100I)	RT-L100I	5
COC(=O)Oc1ccc(NC(=O)C2=C(C)OCCS2)cc1C(=O)OC(C)C	syncytia	CEM	PYR-resistant (RT Y181C)	RT-Y181C	12.9
CC(C)OC(=S)Nc1ccc(Cl)c(COC(C)(C)C)c1	syncytia	CEM	-	RT-L100I	>2.22
O=C1Nc2ccc(F)c(F)c2[C@@](/C=C/C2CC2)(C(F)(F)F)N1	-	-	-	RT-L100I	3.68
CCC(=O)c1ccc(F)c([C@@H]2C[C@@H]2NC(=O)Nc2ccc(C#N)cn2)c1O	β-galactosidase / luminescence	TZM-bl	LAI	NNRTI-resistant (RT V90I)	1.4
CCC1=C(C(=O)Nc2ccc(Cl)c(C(=O)OCC(C)C)c2)SCCO1	syncytia	CEM	TIBO-resistant (RT L100I)	RT-L100I	6
Cc1occc1C(=S)Nc1ccc(Cl)c(C(=O)OCC2CC2)c1	cytopathic effect / XTT	CEM + CEM-SS	NL4-3	RT-A98G	2
CO/N=C(\C)COc1cc(NC(=S)OC(C)C)ccc1Cl	syncytia	CEM	-	RT-Y181C	57
CC1=C(C(=O)Nc2cc(C(=O)OC(C)C)c(F)cc2F)SCCO1	syncytia	CEM	TSAO-resistant (RT E138K)	RT-E138K	>11.8
CC(C)=CCOc1cc(NC(=S)c2ccoc2C)ccc1Cl	cytopathic effect / XTT	CEM + CEM-SS	UC82-R (RT-Y181C)	RT-Y181C	122
Cc1occc1C(=S)Nc1ccc(Cl)c(/C=N/OC(C)(C)C)c1	syncytia	CEM	IIIB	RT-Y188H	4.5
CC(=O)OCCOC(=O)c1cc(NC(=S)OC(C)C)ccc1Cl	syncytia	CEM	-	RT-E138K	>10
COc1ccc(NC(=O)C2=C(C)OCCS2)cc1OCC=C(Cl)Cl	syncytia	CEM	HEPT-resistant (RT Y188H)	RT-Y188H	2.5
CC(C)OC(=S)Nc1ccc(Cl)c(C(=O)OCC(F)(F)F)c1	syncytia	CEM	-	RT-L100I	21.4
CCCC1=C(C(=O)Nc2ccc(Cl)c(C(=O)OCC)c2)SCCO1	syncytia	CEM	PYR-resistant (RT Y181C)	RT-Y181C	>66.7
CC(C)OC(=O)Oc1cc(NC(=S)OC(C)C)ccc1Cl	syncytia	CEM	-	RT-Y181C	15
Cc1occc1C(=S)Nc1ccc(Cl)c(/C=N/OC(C)(C)C)c1	cytopathic effect / XTT	CEM + CEM-SS	NL4-3	RT-K101E	12.5
COC(=S)Nc1ccc(Cl)c(C(=O)OC(C)C)c1	syncytia	CEM	-	RT-Y181C	≥5.27
CC(C)=CCOc1cc(NC(=S)c2ccsc2C)ccc1Cl	cytopathic effect / XTT	CEM + CEM-SS	E BPTU-resistant (RT Y181C)	RT-Y181C	25
CC(C)OC(=S)Nc1ccc(Cl)c(C(=O)OC2CCCC2)c1	syncytia	CEM	-	RT-Y181C	27.3
C=CCO/N=C/c1cc(NC(=S)c2ccoc2C)ccc1Cl	cytopathic effect / XTT	CEM + CEM-SS	4xAZT/L100I(RT-D67N K70R T215Y K219Q L100I)	RT-D67N K70R L100I T215Y K219Q	186

Again, the opening 5 rows:

smiles | read by | cells | strain | mutations | result
CCC(CC)OC(=O)c1cc(NC(=S)OC(C)C)ccc1Cl | syncytia | CEM | - | RT-V106A | 100
CCCCCOC(=O)c1cc(NC(=O)C2=C(C)OCCS2)ccc1Cl | syncytia | CEM | TSAO-resistant (RT E138K) | RT-E138K | 15
CCc1c(Sc2cc(C)cc(C)c2)n(COCc2ccccc2)c(=S)[nH]c1=O | syncytia | CEM | IIIB | RT-Y181C | 53.3
COc1ccc(NC(=S)OC(C)C)cc1CC(=O)OC(C)C | syncytia | CEM | - | RT-V106A | 29.56
Cc1occc1C(=S)Nc1ccc(Cl)c(C(=O)OC(C)C)c1 | cytopathic effect / XTT | CEM + CEM-SS | CALO(RT-T139I) | RT-T139I | 2